The subject of this data set is HIV. The data set is classed as cell-based. The following applies: selectivity index, ratio of CC50 to EC50. The method, then: A rapid and automated assay procedure was used for the in vitro evaluation of anti-HIV agents. An HTLV-1 transformed T4-cell line MT-4, which was previously shown to be highly susceptible to and permissive for HIV infection, served as the target cell line. Inhibition of the HIV-induced cytopathogenic effect was used as the end point. The viability of both HIV-and mock-infected cells was assessed spectrophotometrically via in situ reduction of 3-(4,5-dimethylthiazol-2-yl)-2,5-diphenyltetrazolium bromide (MTT). The 50% cytotoxic concentration (CC50 in μg/ml) was defined as the concentration of compound that reduced the absorbance of the mock-infected control sample by 50%. The percent protection achieved by the compound in HIV-infected cells was calculated by the following formula: […]
whereby (ODT)HIV is the optical density measured with a given concentration of the test compound in HIV-infected cells; (ODC)HIV is the optical density measured for the control untreated HIV-infected cells; (ODC)MOCK is the optical density measured for the control untreated mock-infected cells; all optical density values were determined at 540 nm. The dose achieving 50% protection according to the above formula was defined as the 50% inhibitory concentration (EC50 in μg/ml or μM). The ratio of CC50 to EC50 was defined as the selectivity index (SI). […] Examples of inhibition of cell proliferation by particular compounds of the invention can be found by looking at the respective CC50 values in the MT-4 cell line. Cells: MT-4 cells (Miyoshi et al., 1982) were grown and maintained in RPMI 1640medium supplemented with 10% heat-inactivated fetal calf serum, 2 mM 1-glutamine, 0.1% sodium bicarbonate, and 20æg of gentamicin per ml.
Viruses: The HIV-1 (NL4.3) strain (Adachi et al., 1986) is a molecular clone obtained from the National Institutes of Health (Bethesda, Md.). The HIV-2 (ROD) (Barr, -Sinoussi et al., 1983) stock was obtained from culture supernatant of HIV-2 infected cell lines.

With `CCCC(C(=O)O)c1c(C)nc2cc(C(C)(C)C)nn2c1-c1ccc(C)cc1` (stereo not drawn) [CPD-59, 2-(2-tert-butyl-5-methyl-7-p-tolylpyrazolo[1,5-a]pyrimidin-6-yl)pentanoic acid], the SI is recorded as greater than 18.
With `CCCC(C(=O)O)c1c(C)nc2cc(C(C)(C)C)nn2c1-c1ccc(C)cc1N` (stereo not drawn) [CPD-93, 2-(7-(2-amino-4-methylphenyl)-2-tert-butyl-5-methylpyrazolo[1,5-a]pyrimidin-6-yl)pentanoic acid] the figure was 16; with `CCCC(C(=O)O)c1c(C)nc2c(Cl)c(C(C)(C)C)nn2c1-c1ccc(C)cc1` (stereo not drawn) [CPD-87, 2-(2-tert-butyl-3-chloro-7-p-tolyl-5-methylpyrazolo[1,5-a]pyrimidin-6-yl)pentanoic acid], 16; with `CCCC(C(=O)O)c1c(C)nc2cc(C(C)(C)C)nn2c1-c1ccc(C)c(C)c1` (stereo not drawn) [CPD-70, 2-(2-tert-butyl-7-(3,4-dimethylphenyl)-5-methylpyrazolo[1,5-a]pyrimidin-6-yl)pentanoic acid], greater than 1.
`CCCC(C(=O)O)c1c(C)nc2cc(C(C)(C)C)nn2c1-c1ccc(F)cc1F` (stereo not drawn) [CPD-91, 2-(2-tert-butyl-7-(2,4-difluorophenyl)-5-methylpyrazolo[1,5-a]pyrimidin-6-yl)pentanoic acid]: the SI is listed as 5.
Under `CCCC(C(=O)O)c1c(C)nc2c(C)c(C(C)(C)C)nn2c1-c1ccc(C)cc1` (stereo not drawn) [CPD-99, 2-(2-tert-butyl-3,5-dimethyl-7-p-tolylpyrazolo[1,5-a]pyrimidin-6-yl)pentanoic acid] stands 34; under `CCCC(C(=O)O)c1c(C)nc2cc(C(C)(C)C)nn2c1-c1ccc2c(c1)CCO2` (stereo not drawn) [CPD-68, 2-(2-tert-butyl-7-(2,3-dihydrobenzofuran-5-yl)-5-methylpyrazolo[1,5-a]pyrimidin-6-yl)pentanoic acid], 16; under `CCCC(C(=O)O)c1c(C)nc2cc(C(C)(C)C)nn2c1-c1ccc2occc2c1` (stereo not drawn) [CPD-66, 2-(7-(benzofuran-5-yl)-2-tert-butyl-5-methylpyrazolo[1,5-a]pyrimidin-6-yl)pentanoic acid], 9.
With `CCCC(C(=O)O)c1c(C)nc2c(-c3ccccc3)c(C(C)(C)C)nn2c1-c1ccc(C)cc1` (stereo not drawn) [CPD-100, 2-(2-tert-butyl-5-methyl-3-phenyl-7-p-tolylpyrazolo[1,5-a]pyrimidin-6-yl)pentanoic acid], the SI is recorded as 4.
With `CCCC(C(=O)O)c1c(C)nc2ccnn2c1-c1ccc(C)cc1` (stereo not drawn) [CPD-57, 2-(5-methyl-7-p-tolylpyrazolo[1,5-a]pyrimidin-6-yl)pentanoic acid], the SI is greater than 1.
With `CCCC(C(=O)O)c1c(C)nc2cc(C(C)(C)C)nn2c1-c1ccc(OC)cc1F` (stereo not drawn) [CPD-95, 2-(2-tert-butyl-7-(2-fluoro-4-methoxyphenyl)-5-methylpyrazolo[1,5-a]pyrimidin-6-yl)pentanoic acid], the SI stood at 15.
With `CCCC(C(=O)O)c1c(C)nc2cc(C(C)(C)C)nn2c1-c1ccc2c(c1)OCCCO2` (stereo not drawn) [CPD-72, 2-(2-tert-butyl-7-(3,4-dihydro-2H-benzo[b][1,4]dioxepin-7-yl)-5-methylpyrazolo[1,5-a]pyrimidin-6-yl)pentanoic acid] the figure was less than 6; with `CCCC(C(=O)O)c1c(C)nc2cc(C(C)(C)C)nn2c1-c1ccc(CC)cc1` (stereo not drawn) [CPD-71, 2-(2-tert-butyl-7-(4-ethylphenyl)-5-methylpyrazolo[1,5-a]pyrimidin-6-yl)pentanoic acid], 26.
Under `CCCC(C(=O)O)c1c(C)nc2cc(C(C)(C)C)nn2c1-c1ccccc1` (stereo not drawn) [CPD-58, 2-(2-tert-butyl-5-methyl-7-phenylpyrazolo[1,5-a]pyrimidin-6-yl)pentanoic acid] stands 5; under `CCCC(C(=O)O)c1c(C)nc2c(Br)c(C(C)(C)C)nn2c1-c1ccc(C)cc1` (stereo not drawn) [CPD-60, 2-(3-bromo-2-tert-butyl-5-methyl-7-p-tolylpyrazolo[1,5-a]pyrimidin-6-yl)pentanoic acid], 23; under `COCCC(C(=O)O)c1c(C)nc2cc(C(C)(C)C)nn2c1-c1ccc(C)cc1` (stereo not drawn) [CPD-88, 2-(2-tert-butyl-7-p-tolyl-5-methylpyrazolo[1,5-a]pyrimidin-6-yl)-4-methoxybutanoic acid], greater than 7.
For the compound `CCCC(C(=O)O)c1c(C)nc2cc(C(C)(C)C)nn2c1-c1ccc2cc[nH]c2c1` (stereo not drawn) [CPD-65, 2-(2-tert-butyl-7-(1H-indol-6-yl)-5-methylpyrazolo[1,5-a]pyrimidin-6-yl)pentanoic acid], the SI is listed as 8.
On to `CCCC(C(=O)O)c1c(C)nc2c(nc(C)n2C)c1-c1ccc(C)cc1` (stereo not drawn) [CPD-105, 2-(2,3,5-Trimethyl-7-p-tolyl-3H-imidazo[4,5-b]pyridin-6-yl)pentanoic acid], for which the SI is 10.
Under `CCCC(C(=O)O)c1c(C)nc2cc(C(C)(C)C)nn2c1-c1ccc2sccc2c1` (stereo not drawn) [CPD-67, 2-(7-(benzo[b]thiophen-5-yl)-2-tert-butyl-5-methylpyrazolo[1,5-a]pyrimidin-6-yl)pentanoic acid] stands 24.
In the case of `CCCC(C(=O)O)c1c(C)nc2cc(C(C)(C)C)nn2c1-c1ccc(C(F)(F)F)cc1` (stereo not drawn) [CPD-90, 2-(2-tert-butyl-5-methyl-7-(4-trifluoromethylphenyl)pyrazolo[1,5-a]pyrimidin-6-yl)pentanoic acid], the SI came out at 4.
Consider `CCCC(C(=O)O)c1c(C)nc2cc(C(C)(C)C)nn2c1-c1ccc(Cl)cc1` (stereo not drawn) [CPD-69, 2-(2-tert-butyl-7-(4-chlorophenyl)-5-methylpyrazolo[1,5-a]pyrimidin-6-yl)pentanoic acid], for which the SI is on record as 25.
With `CCCC(C(=O)O)c1c(C)nc2cc(C(C)(C)C)nn2c1-c1ccc(C)cc1C` (stereo not drawn) [CPD-98, 2-(2-tert-butyl-7-(2,4-dimethylphenyl)-5-methylpyrazolo[1,5-a]pyrimidin-6-yl)pentanoic acid] the figure was 12; with `CCCc1cc2nc(C)c(C(CCC)C(=O)O)c(-c3ccc(C)cc3)n2n1` (stereo not drawn) [CPD-77, 2-(5-methyl-2-propyl-7-p-tolylpyrazolo[1,5-a]pyrimidin-6-yl)pentanoic acid], 7.
Consider `CCCC(C(=O)O)c1c(C)nc2cc(-c3ccco3)nn2c1-c1ccc(C)cc1` (stereo not drawn) [CPD-78, 2-(2-(furan-2-yl)-5-methyl-7-p-tolylpyrazolo[1,5-a]pyrimidin-6-yl)pentanoic acid], for which the SI turned out to be 6.
Under `CCCC(C(=O)O)c1c(C)nc2nc(C(C)C)nn2c1-c1ccc(C)cc1` (stereo not drawn) [CPD-121, 2-(2-isopropyl-5-methyl-7-p-tolyl-[1,2,4]-triazolo[1,5-a]pyrimidin-6-yl)pentanoic acid] stands greater than 2; under “Ethyl 2-(2-benzyl-5-methyl-7-p-tolyl-[1,2,4]-triazolo[1,5-a]pyrimidin-6-yl)pentanoate [CPD-123]”, 5.
With `Cc1ccc(-c2c(C(CCCC(F)(F)F)C(=O)O)c(C)nc3cc(C(C)(C)C)nn23)cc1` (stereo not drawn) [CPD-81, 2-(2-tert-butyl-7-p-tolyl-5-methylpyrazolo[1,5-a]pyrimidin-6-yl)-6,6,6-trifluorohexanoic acid] the figure was 3.
With “2-[2-tert-butyl-7-(2-hydroxy-4-methylphenyl)-5-methylpyrazolo[1,5-a]pyrimidin-6-yl]acetic acid [CPD-117]” the figure was 57.
Consider `CCCC(C(=O)O)c1c(C)nc2cc(-c3ccccc3)nn2c1-c1ccc(C)cc1` (stereo not drawn) [CPD-61, 2-(5-methyl-2-phenyl-7-p-tolylpyrazolo[1,5-a]pyrimidin-6-yl)pentanoic acid], for which the SI was determined as 4.
With `CCCC(C(=O)O)c1c(C)nc2cc(C(C)(C)C)nn2c1-c1ccc(C)cc1Cl` (stereo not drawn) [CPD-92, 2-(2-tert-butyl-7-(2-chloro-4-methylphenyl)-5-methylpyrazolo[1,5-a]pyrimidin-6-yl)pentanoic acid] the figure was 7; with `CCCC(C(=O)O)c1c(C)nc2cc(C(C)(C)C)nn2c1-c1ccc(Cl)cc1F` (stereo not drawn) [CPD-79, 2-(2-tert-butyl-7-(4-chloro-2-fluorophenyl)-5-methylpyrazolo[1,5-a]pyrimidin-6-yl)pentanoic acid], 40; with `CCCC(C(=O)O)c1c(C)nc2cc(C(C)(C)C)nn2c1-c1ccc(C(C)C)cc1` (stereo not drawn) [CPD-89, 2-(2-tert-butyl-5-methyl-7-(4-iso-propylphenyl)pyrazolo[1,5-a]pyrimidin-6-yl)pentanoic acid], 6.
With `CCCC(C(=O)O)c1c(C)nc2cc(C(C)(C)C)nn2c1-c1ccc(C)cc1F` (stereo not drawn) [CPD-80, 2-(2-tert-butyl-7-(2-fluoro-4-methylphenyl)-5-methylpyrazolo[1,5-a]pyrimidin-6-yl)pentanoic acid] the figure was 47.

The values are drawn from patent US20120316161A1, “NOVEL ANTIVIRAL COMPOUNDS” (KATHOLIEKE UNIVERSITEIT LEUVEN, priority 2009, published 2012).
